# Patent US20230374114A1, “Coronavirus antibodies and methods of use thereof” (Dana-Farber, published 2023)
# Residue numbers refer to the chain shown, from its start.
# B1: Ab 28 (scFv, V domains shown)
# VH: QVTLKESGPGLVNPSETLSLTCTVSGASISNSFWSWIRQSPGKGLEWIGYTSYSGNSIYNPSLKSRLTMSIDTSKNQLSLNLRSLTAADTAVYYCARREWIKGHFDYWGQGTLVTVSS
# VL: NFMLTQPHSVSESPGKTVTISCTGSGGSIASNYVQWYQQRPGSAPTTVIYEDNQRPSGVPDRFSGSIDSSSNSASLTISGLKTEDEADYYCQSYDSSNPVVFGGGTKLTVL
# notes: also called Ab 28 scFv-Fc
# B2: S1-RBD-R3-T1-G1 Ab (Ab_35) (scFv, V domains shown)
# VH: EVQLVQSGAEVKKPGESLRISCKASGYSFTSNWIGWVRQMPGKGLEWMGSIFPGDSDTKYSPSFQGQVTISADRSISTAYLQWSGLKASDTAMYYCARESYNAYGSWGQGTLVTVSS
# VL: QPGLTQPPSASGTPGQRVTISCSGSSSNIGSNPVNWYQQLPGTAPKLLIYSNNQRPSGVPDRFSGSKSGTSASLAISGLRSEDEADYYCAAWDDSLSGVVFGGGTKLTVL
# notes: also called Ab 35 scFv-Fc
# B3: RBD-R3-E1-F5 Ab (Ab_36) (scFv, V domains shown)
# VH: QVQLQQSGPGLVKPSQTLSLTCAIFGDSVTSNSAAWNWIRQSPSRGLEWLGRTYYSSKWYNDYAVSVKSRVTINADTSKNQLSLQLNSVTPEDTAVYYCARGWLRLSFDPWGQGTLVTVSS
# VL: NFMLTQPHSVSESPGKTVTISCTGSSGSIASNYVQWLQQRLGSAPTTVIYEDNQRPSGVPDRFSGSIDSSSNSASLTISGLKTEDEADYYCQSYDPNNHGVVFGGGTKLTVL
# notes: also called Ab 36 scFv-Fc
# B4: S1-RBD-R3-E1-E8 Ab (Ab 37) (scFv, V domains shown)
# VH: QVQLVQSGAEVKKPGASVKVSCKASGYTFTSYGISWVRQAPGQGLEWMGWISTYNGNTNYAQKLQGRVTMTTDTSTSTAYMEVRSLRSDDTAVYYCARDVFGHFDYWGQGTLVTVSS
# VL: NFMLTQPHSVSESPGKTVLISCTRSSGNIATNYVQWYQQRPGSAPTTVIYEDNQRPSGVPDRFSGSIDSSSNSASLTISGLKTEDEADYYCKSYDDGNHVFGGGTKLTVL
# notes: also called Ab 37 scFv-Fc
# B5: Ab 38 (scFv, V domains shown)
# VH: QVTLKESGPTLVKPTQTLTLTCTFSGFSLTTSGVSVGWIRQPPGKALEWLALIHWDDDKRYSPSLRSRLTITRDTSKNQVVLTVTDMDPADTGTYYCASFIMTVYAEYFEDWGQGTLVTVSS
# VL: EIVLTQSPATLSVSPGERATLSCRASQSVSSNLAWYQQKPGQAPRLLMYDVSTRATGIPARFSGSGSGTEFSLTISSLQSEDFAVYYCQQRGAWPLTFGGGTKVEIK
# notes: also called Ab 38 scFv-Fc
# B6: S1-RBD-R3-T1-F9 Ab (Ab_39) (scFv, V domains shown)
# VH: QVTLKESGPTLVKPTQTLTLTCTLSGVSLDTIGMRVSWIRQPPGKALEWLARIDWDDDKFYSTALKTRLTISKDTSKNQVVFTMTSMDPVDTATYYCARSGLLYDLDVWGRGTLVTVSS
# VL: QSVVTQPPSVSGAPGQRVTISCTGSDSDIGANFVQWYQQLPGTAPKLLIWRNTNRPSGVPDRFSASKSGTSASLAITGLQAEDEADYFCQSYDSSLSAYVFGGGTKVTVL
# notes: also called Ab 39 scFv-Fc
# B7: RBD-R3-T1-H3 (Ab_2) (scFv, V domains shown)
# VH: EVQLVQSGAEVKKPGSSVKVSCKTSGYTFTTSGISWVRQAPGQGLEWMGWISAYNGNTNYAQKLQGRVTMTTDTSTSTAYMELRSLRSDDTAVYYCARDFHLYYGMDVWGKGTLVTVSS
# VL: QSALTQPPSASGSPGQSVTISCTGTSSDVGAYNYVSWYQQHPGKAPKLLIYDVTKRPPGVPDRFSGSKSGNTASLTVSGLQAEDEADYYCAVWDDGLNGRVVFGGGTKLTVL
# notes: also called Ab 2 scFv-Fc
# B8: S1-R3-T1-A12 (Ab_5) (scFv, V domains shown)
# VH: QVQLVQSGGGVVQPGRSLRLSCAASGFTFTTYGMHWVRQAPGKGLEWVAVISYDGSIKNYADFVEGRFTISRDNSKNTLYLQMNSLRPEDTGVYYCARVGDSSSYYGIDAWGQGTLVTVSS
# VL: B2 VL with G3V, P33S, G65D, R80Q, Y88F, S97T, V99Y, G103T, L107V
# notes: also called Ab 5 scFv-Fc
# B9: S1-RBD-R3-T1-E2 (Ab7) (scFv, V domains shown)
# VH: QVQLVQSGGGLVQPGRSLRLSCAASGFTFDDYAMHWVRQVPGKGLEWVSGIDWNSGVIGYADSVKGRFTISRDNAKNSLYLQMNSLRAEDTALYYCAKDAYSYGFLGAFDIWGQGTMVTVSS
# VL: QPGLTQPPSVSVAPGQTARISCGGNNIGSKSVHWYQQKPGRAPVLVVYEDRGRPSGIPERFSGSNSGNTATLTVSRVEAGDEADYYCQVWDGDSDHYVFATGTKVSIL
# notes: also called Ab 7 scFv-Fc
# B10: S1-R3-T1-C4 (Ab_8) (scFv, V domains shown)
# VH: QVQLVQSGAEVKKPGSSVKVSCKASGGTFSSYAISWLRQAPGQGLEWMGWINPNSGGTNYAQKFQGRVTMTRDTSISTAYMELSRLRSDDTAVYYCARGSGGYYLGWGQGTLVTVSS
# VL: QPGLTQPPSVSKGLRQTATLTCTGNSNNVGNQGAAWLQQHQGHPPKLLSYMNNNRPPGISERFSASRSGNTASLTITGLQPEDEADYYCSAWDSSLSRWVFGGGTKLSVL
# notes: also called Ab 8 scFv-Fc
# Legend:
# [1] = molecular target: B.1.351 Spike (SARS-CoV-2); assay: biosensor, scFv-Fc loaded at 1 ug/ml, spike in solution at 48.5 nM
# [2] = molecular target: B.1.1.7 Spike (SARS-CoV-2); assay: biosensor, scFv-Fc loaded at 1 ug/ml, spike in solution at 48.4 nM
# [3] = molecular target: P.1 Spike (SARS-CoV-2); assay: biosensor, scFv-Fc loaded at 1 ug/ml, spike in solution at 48.3 nM
# [4] = molecular target: B.1.351 Spike (SARS-CoV2); assay: biosensor kinetics; scFv-Fc loaded at 1 ug/ml, spike as analyte at 48.5 nM
# [5] = molecular target: B.1.1.7 Spike (SARS-CoV2)
# [6] = molecular target: P.1 Spike (SARS-CoV2)
Binder,Kd [1],Response [1],Kd [2],Response [2],Kd [3],Response [3],Kd [4],Response [4],Kd [5],Response [5],Response [6],Kd [6]
B1,0.00638 nM,0.12,1.49 pM,0.206,8.91 pM,0.102,–,–,–,–,–,–
B2,–,–,–,–,–,–,9.16 pM,0.165,7.96 pM,0.19,0.155,–
B3,–,–,–,–,–,–,8.07 pM,0.134,5.16 pM,0.146,0.113,8.89 pM
B4,–,–,–,–,–,–,6.69 pM,0.118,1.28 pM,0.148,0.108,8.99 pM
B5,–,–,–,–,–,–,7.62 pM,0.234,1.47 pM,0.267,0.228,7.23 pM
B6,–,–,–,–,–,–,1.83 pM,0.167,< 1 pM,0.293,0.158,11.2 pM
B7,0.503 nM,0.0439,657 pM,0.161,9.13 pM,0.0281,–,–,–,–,–,–
B8,0.0181 nM,0.125,326 pM,0.185,7.71 pM,0.115,–,–,–,–,–,–
B9,0.00167 nM,0.233,1.1 pM,0.356,10.9 pM,0.242,–,–,–,–,–,–
B10,1.09 nM,0.0872,2.29 pM,0.202,10.6 pM,0.0784,–,–,–,–,–,–
